Data: patent publication US6117849A, “S-(+)-adenosylmethionine and 3'-azido-2', 3'-dideoxy-nucleoside complexes as potent inhibitors of HIV-replication” (Symbio Herborn Group GmbH & Co., priority 1996, dated 2000)
Where two headings read alike, the source gives them in different places.

Assays:
[1] = system: T-lymphocyte cell cultures
Description: Viability of the T cells was determined by means of a tetrazolium salt (MTT) metabolic assay.--(see also: Schwartz, O., et al., AIDS Rcs. Hum. Retroviruses, 4 441-448, 1988).

[2] = molecular target: T1, reverse transcriptase (RT) (HIV-1 M:B_HXB2R, UniProt P04585); format: biochemical; design: A2: RT in cord-blood lymphocyte cultures infected with HIV from an AIDS patient; conditions: no DTT
[3] = molecular target: T1, reverse transcriptase (RT); format: biochemical; design: A2: RT in cord-blood lymphocyte cultures infected with HIV from an AIDS patient; conditions: for Ki: RT
Description: The second in-vitro test uses the enzymatic activity of RT, testing the kinetic and inhibitory action of the molecular complexes. The cloning of the RT in biologically active form made it possible to have large quantities of the RT enzyme available for these studies (RT from Sigma, lot # R 9376).
The steady state reaction conditions for RT are chosen that approximate physiological conditions are met: pH 7.45 (37° C.), ionic strength of 150 mM, routinely a buffer was employed consisting of 50 mM TRIS-HCl, 100 mM KCl, 5 mM MgCl2, the addition of 10 μg/mL bovine serum albumin were included. […] The aforementioned precautions designed to avoid potential reduction of SAM in the presence of DTT are taken into accounts to preclude any distortions of the kinetic behavior of the RT enzyme in the presence of the various substrates e.g. as our molecular compounds. […] The enzyme concentrations of RT was approx. 20 nM, T-P (template-primer) […] and 25 μM of [^3 H]-dNTP (assay conditions are modified fro those of Mayunder et al., J. biol. Chem.,263, 15657, 1988). […] In case both parameters are effected to the same extent, then the inhibition is uncompetitive. In order to facilitate the difference between SAM kinetics and those for the molecular complexes we studied first SAM kinetics and subsequently the kinetics in the presence of the molecular complexes. […] Similar experiments have been carries out with dGTP.
The enzyme was assayed with 50 nM primer sites on poly (rA): oligo (dT), and variable concentrations of [^3 H] dTP as substrates in a reaction mixture as described above at pH 7.5 (37° C.).

bone marrow stem cells = conditions: vs AZT
[4] = system: mitochondrial DNA replication; conditions: vs AZT

Substance | therapeutic index ([1]; in vitro, considering cytotoxicity) | kcat [2] | type of RT inhibition ([3]; double reciprocal plot / steady state kinetics) | kcat ([3]; no DTT) | Ki ([3]; no DTT) | Km ([3]; no DTT, pH 7.45-7.5, 37° C.) | kcat ([3]; noncompetitive with respect to deoxyadenosine triphosphate) | kcat ([3]; noncompetitive with respect to deoxyguanosine triphosphate) | toxicity for bone marrow stem cells (bone marrow stem cells) | therapeutic index ([1]; t-lymphocyte cultures) | toxicity/inhibition of mitochondrial DNA replication [4]
(+)-SAM-3'-azido-2',3'-dideoxythymidine complex [SAM/AZT] | 7.000 | 0.025 s⁻¹ | noncompetitive | approx. 1.5 min^-1 | 180 ± 10 nM | 0.67 ± 0.02 µM | 1.5 min.^-1 | 2.5 min⁻¹ |  |  | 
3'-azido-2',3'-dideoxyuridine [SAM/AZU] |  |  |  |  | 210 ± 10 nM |  |  |  | less toxic than AZT | 6.500 | less toxic as well as inhibitory to mitochondrial DNA replication
3'-azido-2',3'-dideoxyinosine [SAM/AZI] |  |  |  |  |  |  |  |  |  | 5.000 | 
